Experimental data as given in the supplement of paper PMC9931576.
Human monoclonal antibodies against the spike receptor-binding domain (heavy:light variable regions). IC50 against pseudoviruses bearing the spike of naturally observed variants; lower = stronger; >10 µg/ml means not reached at the top dose. No active / inactive call. The stated detection limit is 0.0005 µg/ml; values near or below 0.001 µg/ml lie at the floor of the assay.

Assays:
Test in all cases: pseudovirus neutralization IC50; higher = weaker neutralization
[1] = biological target: SARS-CoV-2 Omicron BA.1 spike pseudovirus
Procedure: (§1)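 Single-round VSV luciferase pseudovirus mixed with antibody dilutions for 1 h and put on Huh-7 cells for about a day; IC50 from the dose curve.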

[2] = biological target: SARS-CoV-2 Omicron BA.2 spike pseudovirus
Procedure: as §1

[3] = biological target: SARS-CoV-2 Omicron BA.2.75 spike pseudovirus
Procedure: as §1

[4] = biological target: SARS-CoV-2 Omicron BA.5 spike pseudovirus
Procedure: as §1

[5] = biological target: SARS-CoV-2 Omicron BQ.1.1 spike pseudovirus
Procedure: as §1

[6] = biological target: SARS-CoV-2 Omicron XBB spike pseudovirus
Procedure: as §1

[7] = biological target: SARS-CoV-2 early D614G spike pseudovirus
Procedure: as §1

| Binder | pseudovirus neutralization IC50 [1] [µg/mL] | pseudovirus neutralization IC50 [2] [µg/mL] | pseudovirus neutralization IC50 [3] [µg/mL] | pseudovirus neutralization IC50 [4] [µg/mL] | pseudovirus neutralization IC50 [5] [µg/mL] | pseudovirus neutralization IC50 [6] [µg/mL] | pseudovirus neutralization IC50 [7] [µg/mL] |
| --- | --- | --- | --- | --- | --- | --- | --- |
| BD56-472 (protein) chain 1: QVQLVQSGAEVKKPGSSVKVSCKASGGTFSSYAFSWVRQAPGQGLEWMGGIIPPFTTANYAQKFQGRVTITADESTSTAYMELSSLRSEDTAVYFCARVWFGELWGPHWYFDLWGRGTLITVSS chain 2: DIQMTQSPSSLSASIGDRVTITCRASQSVSSYLNWYQQKPGKAPKLLIYAASSLQSGVPSRFSGSGSGTDFTLTISSLQPEDFATYYCQQSYSTTFGQGTKVEIK | 0.075 | 0.0649 | 0.0401 | > 10 | > 10 | > 10 | 0.00712 |
| BD56-455 (protein) chain 1: EVQLVESGGGLVQPGRSLRLSCAASGFSFEDYAMHWVRQAPGKGLEWVSGISWNGGTIGYADSVKGRFTISRDNAKNSLFLHMRSLRAEDTALYYCAKDIQGVTTVRGVIIEDSYGMDVWGQGTTVTVSS chain 2: QSALTQPASVSGSPGQSITISCTGTSSDVGAYNYVSWYQQHPGKAPKLMIYDVSSRPSGVSNRFSGSKSGNTASLTISGLQADDEADYYCSSYTGSSTLVFGGGTKLTVL | 0.157 | 0.0872 | 0.0963 | 3.8 | – | – | 0.0165 |
| DH1180 (protein) chain 1: QVQLVESGGGVVQPGRSLRLSCAASGFTFSSYAMHWVRQAPDKGLEWVAVISYDGSNKYYADSVKGRFTISRDNSKNTLYLQLNSLRTEDTAVYYCAREDYYDSSGSLDYWGQGTLVTVSS chain 2: QSALTQPASVSGSPGQSITISCTGTSSDVGGYNYVSWYQQHPGKAPKLMIYDVSNRPSGVSNRFSGSKSGNTASLTISGLQAEDEADYFCSSYTSSSTWVFGGGTKLTVL | > 10 | > 10 | > 10 | > 10 | > 10 | > 10 | > 10 |
| DH1045 (protein) chain 1: QLQLQESGPGLVKPSETLSLTCTVSGGSISSSGYYWGWIRQPPGKGLEWIGTIYYGGSTYYSPSLKSRVTISVDTSKNQFSLKLSSVTAADTAVYYCASQQWLRGNFDYWGQGTLVTVSS chain 2: NFMLTQPHSVSESPGKTVTISCTGSSGSIASNYVQWYQQRPGSAPTTVIYEDNQRPSGVPDRFSGSIDSSSNSASLTISGLKTEDEADYYCQSYDSSTYWVFGGGTKLTVL | > 10 | > 10 | > 10 | > 10 | > 10 | > 10 | 0.681 |
| BD56-464 (protein) chain 1: QVQLEQSGAEVKKPGTSVKVSCKASRGTLSTYAISWVRQAPGQGLDWLGRIIPMLGVTNYAQNFQDRVTITADKSTSTVYMELSTLTSEDTAVYYCSIDPEFTALTGGEFTQNFDFWGRGTLVTVSS chain 2: EIVLTQSPGPLSLSPGERATLSCRASQSIRNTYFAWHQHKPGQTPRLLIYGASTRATGIPDRFSGSGSGTDFTLTISRLEPEDFAVYYCQQYDSSPWTFGQGTKVDIK | 0.763 | 0.00399 | 0.0635 | > 10 | > 10 | > 10 | 0.0016 |
| BD56-451 (protein) chain 1: EVQLVESGGGLVQPGRSLRLSCAASGYTFDEYAMHWVRQAPGKGLEWVSGISWNSGVIGYADSVKGRFIISRDNAKNSLYLQMNSLRAEDTALYYCAKGGQVHYNILTGYYDDEGGFDYWGQGTLVTVSS chain 2: EIVMTQSPATLSVSPGERATLSCRASQSVSSNVAWYQQKPGQAPRLLIYGASTRATGIPARFSGSGSGTEFTLTISSLQSEDFAVYYCQQYNNGLYTFGQGTKLEI | 0.104 | 0.0633 | 0.117 | 1.49 | > 10 | > 10 | 0.114 |
| BD56-460 (protein) chain 1: EVHLVESGGGLIQPGGSLRLSCAASEFIVSSNYMTWVRQAPGKGLEWVSLIYPGGSTFYADSVKGRFTISRDNSKNTLYLQMNSLRVEDTAVYYCARGDGSDLPFDFWGQGTLVTVSS chain 2: QSALTQPASVSGSPGQSITISCTGTSSDLGGYHYVSWYQQHPGKAPKLMIFEVNNRPSGVSTRFSGSKSGNTASLTISGLQPEDEADYYCSSYASTTTHVLFGGGTKLTVL | 0.0186 | 0.0139 | 3.7 | 1.82 | > 10 | > 10 | 0.00321 |
